Results of unrelated studies side by side (data: NIAID ChemDB).

Common to all: whole-cell or culture tests; organism: Adenovirus

Blank or dashed fields: not listed here.

smiles,strain or isolate,cell line,read by,endpoint,tested at,value
COC(=O)[C@H]1[C@@H]2C[C@@H](O[C@@H]3O[C@H](C)[C@@H](O)[C@H](N)[C@@H]3O)/C=C/C=C/C=C/C=C/C=C/C=C/C=C/[C@H](C)[C@@H](O)[C@H](C)[C@H](C)OC(=O)C[C@H](O)C[C@H](O)[C@@H](O)CC[C@H](O)C[C@H](O)C[C@](O)(C[C@@H]1O)O2,TYPE 4,HFF,plaque count,inhibition,100 µg/mL,10%
CSc1nsc(-c2ccc(Cl)cc2Cl)c1C#N,TYPE 2,HEP-2,plaque count,EC50,-,>8 µM
Nc1ccc(S(=O)(=O)[O-])c2c(S(=O)(=O)[O-])ccc(O)c12,TYPE 3,Human amnion AV3 cells,cytopathic effect,inhibition,50 µg/mL,40%
CSc1nsc(-c2ccc(O)cc2)c1C#N,TYPE 2,HEP-2,plaque count,EC50,-,>2 µM
Nc1ccn(C[C@@H](CO)OCP(=O)(O)O)c(=O)n1,TYPE 3,-,-,MIC,-,3 µg/mL
Nc1nc2c(ccn2[C@@H]2C[C@H](CO)[C@@H](O)[C@@H]2O)c(=O)[nH]1,-,-,-,MIC,-,>100 µg/mL
Nc1cnn([C@@H]2O[C@H](CO)[C@@H](O)[C@H]2O)c(=O)n1,TYPE 5,HEP-2,-,inhibition,8 µg/mL,100%
O=S(=O)(O)c1ccc2ccc(S(=O)(=O)O)cc2c1,TYPE 3,Human embryonic lung cells,cytopathic effect,inhibition,10 µg/mL,0%
N#Cc1c(-c2ccccc2)s[nH]c1=S,TYPE 2,HEP-2,plaque count,EC50,-,>60 µM
Nc1ccc2cc(S(=O)(=O)O)cc(S(=O)(=O)O)c2c1,TYPE 3,Human embryonic lung cells,cytopathic effect,inhibition,5 µg/mL,0%
Cc1ccc(S(=O)(=O)O)cc1.N/C(=N\N=C\c1cccc2c([N+](=O)[O-])cccc12)NO,ATCC (TYPE 8),A549,plaque count,EC50,-,3.5 µM
Nc1ncnc2c1ncn2C[C@@H](CO)OCP(=O)(O)O,TYPE 3,-,-,MIC,-,0.3 µg/mL
Nc1ccc2cc([N+](=O)[O-])cc(S(=O)(=O)[O-])c2c1,TYPE 3,Human embryonic lung cells,cytopathic effect,inhibition,10 µg/mL,45%
S=c1cc(-c2ccccc2)s[nH]1,TYPE 2,HEP-2,plaque count,EC50,-,>90 µM
O=S(=O)(O)c1ccc2cc(O)c(S(=O)(=O)O)cc2c1,TYPE 3,Human amnion AV3 cells,cytopathic effect,inhibition,10 µg/mL,0%
CSc1nsc(-c2ccc3ccccc3c2)c1C#N,TYPE 2,HEP-2,plaque count,EC50,-,>20 µM
O=S(=O)(O)c1cccc2c(O)cccc12,TYPE 3,Human amnion AV3 cells,cytopathic effect,inhibition,10 µg/mL,0%
CC1(C(=O)O)CCC2(C)CCC3(C)C(=CC(=O)C4C5(C)CCC(OC(=O)C6CCCCC6C(=O)O)C(C)(C)C5CCC43C)C2C1,TYPE 5,-,virus yield,EC99,-,150 µM

The last 2 rows once more:

smiles,strain or isolate,cell line,read by,endpoint,tested at,value
O=S(=O)(O)c1cccc2c(O)cccc12,TYPE 3,Human amnion AV3 cells,cytopathic effect,inhibition,10 µg/mL,0%
CC1(C(=O)O)CCC2(C)CCC3(C)C(=CC(=O)C4C5(C)CCC(OC(=O)C6CCCCC6C(=O)O)C(C)(C)C5CCC43C)C2C1,TYPE 5,-,virus yield,EC99,-,150 µM

ECn: concentration that inhibits the pathogen or its effect by n%. Rows are shuffled and stem from different studies. Inhibition is in % at the dose shown (toxicity tests: loss of growth or viability).